PubChem BioAssay AID504761 | Drosophila RNAi Screening Center – 2011
The screen tested about 22,000 reagents; this is a random part of those with a known target gene and a result. Over the whole deposit, 116 (0.52%) got an active call. 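Calls depend on retest data that are not deposited; infection was ranked per plate without normalising between plates; the unit of the infection score is not given.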 Unmarked entries are inactive. A plus sign joins genes that one reagent is predicted to hit. Not all columns of the deposit are shown. The record does not give: the amount of reagent, the time to read-out.

Purpose: 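Insect host genes that dengue virus relies on to spread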 (primary screen)
Cell system: D.Mel-2 cells from Drosophila
Reagents: long dsRNA against Drosophila genes
Treatment: infection with dengue virus type 2; dose and infection time not stated
Read-out: 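Cells stained for dengue envelope protein and imaged; percent of infected cells per well on duplicate plates, ranked by infection, with stained nuclei counted for cell number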
Reading the numbers: infection score: higher = more virus-infected cells
Active means: 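Very low infection ranking in both replicate wells (chance probability at most 0.065), then a retest showing infection dropped 1.5-fold or more at p below 0.05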
Calls: active = confirmed: knock-down lowers infection; inactive = not picked or not confirmed

CG33017 [DRSC06573] gave infection score, replicate 1 = 20.5. Knock-down of CG33017 [DRSC06574] came out at: infection score, replicate 1 = 24.6. Against CG9839 [DRSC16574], the values are infection score, replicate 1 = 9.25. For Pex16 [DRSC11750] the deposit lists infection score, replicate 1 = 7.89. Depletion of CG6180 [DRSC02937] resulted in: infection score, replicate 1 = 4.17. Depletion of CG6180 [DRSC25726] resulted in: infection score, replicate 1 = 6.37.

For Syn1 [DRSC11803], the values are infection score, replicate 1 = 5.07. For Syn1 [DRSC11804], the values are infection score, replicate 1 = 0.91. Against Syn1 [DRSC30039], the entry reads infection score, replicate 1 = 15.3. For Ipk1 [DRSC04235], the entry reads infection score, replicate 1 = 14.2. Depletion of Ipk1 [DRSC04236] resulted in: infection score, replicate 1 = 16.3. After knock-down of Ipk1 [DRSC04237] the results were infection score, replicate 1 = 8.06.

For CG4271 [DRSC00649], the entry reads infection score, replicate 1 = 2.42. CG7888 [DRSC10926] gave infection score, replicate 1 = 4.81.

4 consecutive records already listed, for reference:
Ipk1 [DRSC04236] — infection score, replicate 1: 16.3
Ipk1 [DRSC04237] — infection score, replicate 1: 8.06
CG4271 [DRSC00649] — infection score, replicate 1: 2.42
CG7888 [DRSC10926] — infection score, replicate 1: 4.81

The list goes on.
vig [DRSC03630] showed infection score, replicate 1 = 6.47. Silencing of vig [DRSC21672] resulted in: infection score, replicate 1 = 1.24. SmD3 [DRSC07553] showed infection score, replicate 1 = 8.07. Knock-down of SmD3 [DRSC29356] came out at: infection score, replicate 1 = 17.8. IntS8 [DRSC07417] scored infection score, replicate 1 = 4.15. CG34234 + Dh44-R2 [DRSC07278] gave infection score, replicate 1 = 10.9.

CG40198 [DRSC21068] showed infection score, replicate 1 = 6.45.
